Experimental findings from paper PMC11594364 are described below.

Protein sequences, listed by entry. Tags and fused reporters are not part of them. Residues count along the entry.
UniProt P11387, 2-765 limits assumed: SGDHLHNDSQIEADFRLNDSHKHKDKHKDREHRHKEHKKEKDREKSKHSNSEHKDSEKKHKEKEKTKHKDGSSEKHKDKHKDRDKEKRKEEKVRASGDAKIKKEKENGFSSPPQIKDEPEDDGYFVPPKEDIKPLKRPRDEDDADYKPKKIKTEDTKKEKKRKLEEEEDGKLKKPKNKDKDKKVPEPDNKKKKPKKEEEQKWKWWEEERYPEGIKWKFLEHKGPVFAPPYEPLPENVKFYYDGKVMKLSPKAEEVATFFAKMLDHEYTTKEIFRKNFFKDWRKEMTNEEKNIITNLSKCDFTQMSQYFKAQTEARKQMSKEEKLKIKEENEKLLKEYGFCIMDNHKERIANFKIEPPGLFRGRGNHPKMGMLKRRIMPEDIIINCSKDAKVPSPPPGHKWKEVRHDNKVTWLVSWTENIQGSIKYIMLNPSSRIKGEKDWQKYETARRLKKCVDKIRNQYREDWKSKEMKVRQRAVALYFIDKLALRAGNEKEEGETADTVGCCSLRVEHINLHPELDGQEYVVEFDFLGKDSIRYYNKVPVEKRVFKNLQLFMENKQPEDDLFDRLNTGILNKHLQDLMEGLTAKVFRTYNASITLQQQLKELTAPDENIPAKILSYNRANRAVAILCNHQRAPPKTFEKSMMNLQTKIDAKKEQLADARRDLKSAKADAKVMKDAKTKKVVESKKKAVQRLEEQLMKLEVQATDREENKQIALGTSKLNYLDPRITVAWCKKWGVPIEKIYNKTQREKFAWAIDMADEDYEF
UniProt P9WG49, whole entry: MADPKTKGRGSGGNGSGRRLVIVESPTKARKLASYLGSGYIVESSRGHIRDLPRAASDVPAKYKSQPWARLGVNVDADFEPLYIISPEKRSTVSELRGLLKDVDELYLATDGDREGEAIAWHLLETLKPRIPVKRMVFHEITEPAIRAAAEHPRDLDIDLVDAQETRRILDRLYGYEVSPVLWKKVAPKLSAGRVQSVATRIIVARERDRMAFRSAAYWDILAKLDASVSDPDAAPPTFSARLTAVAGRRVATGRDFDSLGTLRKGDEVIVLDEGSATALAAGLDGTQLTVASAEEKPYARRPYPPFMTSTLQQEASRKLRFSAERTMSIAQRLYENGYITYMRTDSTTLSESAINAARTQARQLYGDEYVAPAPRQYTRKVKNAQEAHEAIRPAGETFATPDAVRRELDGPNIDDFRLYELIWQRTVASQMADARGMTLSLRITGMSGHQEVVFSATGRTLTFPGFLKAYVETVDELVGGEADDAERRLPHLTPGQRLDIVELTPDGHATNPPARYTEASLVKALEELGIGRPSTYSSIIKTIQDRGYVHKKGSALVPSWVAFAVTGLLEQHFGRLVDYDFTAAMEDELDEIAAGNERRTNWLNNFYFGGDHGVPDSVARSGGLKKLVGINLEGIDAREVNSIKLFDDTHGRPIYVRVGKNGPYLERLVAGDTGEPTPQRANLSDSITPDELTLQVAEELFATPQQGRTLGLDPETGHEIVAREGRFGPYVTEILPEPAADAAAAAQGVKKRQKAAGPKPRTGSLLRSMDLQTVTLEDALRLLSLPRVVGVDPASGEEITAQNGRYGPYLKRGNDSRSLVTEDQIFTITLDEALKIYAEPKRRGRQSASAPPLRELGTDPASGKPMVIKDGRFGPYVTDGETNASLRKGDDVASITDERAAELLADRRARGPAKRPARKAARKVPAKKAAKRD

One assay addresses human topoisomerase I (Homo sapiens, UniProt P11387). Kind of assay: gel-based relaxation assay of supercoiled plasmid DNA, purified recombinant enzyme, serial dilutions.
Assay [1] deals with M. tuberculosis topoisomerase I (MtbTOP1) (Mycobacterium tuberculosis, UniProt P9WG49). The assay is described as above.

One may read the IC50 as the midpoint of a concentration-inhibition curve. For the compound `COc1cc2c(cc1NC(=O)CSc1nc3sc(C(=O)O)c(C)c3c(=O)[nH]1)oc1ccccc12`, the IC50 at human topoisomerase I is 25 to 50 µM; in assay [1], 7 µM.
For `CCOC(=O)c1c(NC(=O)CSc2nc3sc(C(=O)O)c(C)c3c(=O)[nH]2)sc(C)c1C` the same measures were 50 to 100 µM and 8.3 µM.
